Compound potency records, mixed from different reports. Data source: NIAID ChemDB in PubChem.

Common to all: whole-cell or culture tests; species: Mycobacterium avium; read-out: MIC

An empty or dashed field is not shown.

SMILES,strain,read by,setting,value
Cc1nc2scc(-c3ccco3)c2c(=O)n1/N=C/C1CCCCC1,CNCTC MY330/88,,,62 µM
O=C(Oc1ccc(Cl)cc1C(=O)Nc1ccc(Br)cc1)c1cnccn1,330/88,,21 d,8 µM
NC(=O)c1c(NC(=O)c2c(F)c(F)c(F)c(F)c2F)sc2c1CCOC2,,turbidity,,>200 µM
O=C1NC(=Nc2ccc(Cl)cc2Cl)N/C1=C\c1ccc(Cl)cc1Cl,,,,>12.5 µg/mL
Cc1nc2scc(-c3ccco3)c2c(=O)n1/N=C/c1ccc(Cl)cc1Cl,CNCTC MY330/88,,,5 µM
Cc1ccc2nc(SCc3ccc(C(F)(F)F)cc3)[nH]c2c1,MY330/88,,,32 µM
O=C(Oc1cc(Cl)ccc1C(=O)Nc1ccc(Cl)cc1)c1ccccc1,330/88,broth dilution,21 d,4 µM
Cc1nc2scc(-c3ccco3)c2c(=O)n1NC(=O)c1ccc(Cl)cc1,CNCTC MY330/88,,,20 µM
CCN1C(NNC(=O)c2ccncc2)=NS(=O)(=O)c2ccccc21,ATCC49601,,,16 µg/mL
COc1ccc(-n2c(C)nc3ccc(Cl)cc3c2=S)cc1,MY330/88,,,125 µg/mL
CCCCCCOc1ccccc1NC(=O)OCCN(C)C,MY330/88,,,62.5 µM
O=C(Oc1cc(Cl)ccc1C(=O)Nc1cccc(Cl)c1)c1cnccn1,330/88,,21 d,8 µM
Cc1ccc2nc(SCc3ccc([N+](=O)[O-])cc3)[nH]c2c1,MY330/88,,,16 µM
CC(C)c1ccc(NC(=S)c2cccc(Cl)c2)cc1,MY330/88,,,32 µM
CCCCCOc1ccc(NC(=O)OCCN2CCOCC2)cc1,MY330/88,,,32 µM
S=c1oc2c(Cl)cc(Cl)cc2c(=S)n1-c1cccc(Cl)c1,330/88,,,32 µM
CC(C)c1ccc(NC(=S)c2cccc(Br)c2)cc1,MY330/88,,,62.5 µM
CC(=O)NC[C@H]1CN(c2ccc(N3CCS(=O)(=O)CC3)c(F)c2)C(=O)O1,,,,2 µg/mL
CC(C)C1Nc2cc(C(C)(C)C)cc(C(C)(C)C)c2O1,MY330/88,,,1000 µM
O=C(Oc1ccc(Cl)cc1C(=O)Nc1cccc(Cl)c1)c1ccccc1,330/88,broth dilution,21 d,8 µM
N#Cc1cnc(C(N)=O)c(Nc2ccc(Cl)cc2)n1,80/72,,,>100 µg/mL
CN1C(NNC(=O)c2ccc(Cl)nc2)=NS(=O)(=O)c2ccccc21,ATCC49601,,,>16 µg/mL
CCCCCCOc1ccccc1NC(=O)OCC[NH+]1CCCC1,MY330/88,,,32 µM
Cc1ccc2nc(SCc3ccc(C(N)=S)cc3)[nH]c2c1,MY330/88,,,16 µM
N#Cc1ccnc(N2CCCCC2)c1,330/88,,,500 µM
CC[C@@H](C)[C@H](NC(=O)OCc1ccccc1)c1cnc(-c2ccccc2)[nH]1,MY330/88,,21 d,>500 µM
N#CCSc1ccnc(C#N)c1,330/88,,,500 µM
O=C(N[C@@H](Cc1ccccc1)c1cnc(-c2ccccc2)[nH]1)OCc1ccccc1,MY330/88,,14 d,>250 µM
NC(=S)c1cc(SCc2ccc(Cl)c(Cl)c2)ccn1,CNCTC MY330/88,,,3.98 µM
O=C(Nc1cccc(F)c1)c1cc(F)ccc1O,CNCTC MY330/88,,,31 µM
N#Cc1cnc(C(N)=O)c(Nc2ccccc2)n1,80/72,,,>100 µg/mL
NC(=S)c1cc(N2CCCCC2)ccn1,330/88,,,125 µM
O=C1NC(Nc2ccc(Cl)cc2)=N/C1=C\c1ccccc1Cl,,,,>12.5 µg/mL
NC(=S)c1cc(SCc2ccc([N+](=O)[O-])cc2[N+](=O)[O-])ccn1,CNCTC MY330/88,,,15.85 µM
NC(=S)CSc1cc(C(N)=S)ccn1,330/88,,,62 µM
CCOc1ccccc1NC(=O)OCC[NH+]1CCCC1,MY330/88,,,>1000 µM
Cc1cccc(CSc2ccnc(C(N)=S)c2)c1,CNCTC MY330/88,,,7.94 µM
O=C(Nc1cccc(F)c1)c1cc(Cl)ccc1O,330/88,broth dilution,21 d,31 µM
CCN1CCc2c(sc(NC(=O)c3c(F)c(F)c(F)c(F)c3F)c2C(=O)NC)C1,2285 (S),resazurin / turbidity,,>100 µM
O=C(Oc1cc(Cl)ccc1C(=O)Nc1ccc(F)cc1)c1ccccc1,330/88,broth dilution,14 d,4 µM
N#Cc1cc(SCc2ccccc2Cl)ccn1,CNCTC MY330/88,,,61.66 µM
Nc1ccc(C(=O)O)c(O)c1,330/88,,21 d,125 µM
C[C@@H](NC(=O)OCc1ccccc1)c1cnc(-c2ccc([N+](=O)[O-])cc2)[nH]1,MY330/88,,21 d,>125 µM
O=C(Nc1ccc(Cl)c(Cl)c1)c1cc([N+](=O)[O-])ccc1O,CNCTC MY330/88,,,31 µM
CC(C)c1c(O)cc([C@H](N=C(N)N)C(=O)NCC(=O)O)cc1O,S-141,,,6.25 µg/mL
Cc1nc2ccc(Cl)cc2c(=S)n1-c1ccc(Br)cc1,MY330/88,,,>31 µg/mL
O=C(Oc1cc(Cl)ccc1C(=O)Nc1cccc(Br)c1)c1ccccc1,330/88,broth dilution,14 d,4 µM
CCCCNC(=O)c1cc([N+](=O)[O-])cc([N+](=O)[O-])c1,,visual reading,,64 µg/mL
NC(=S)c1cc(SCc2cc([N+](=O)[O-])cc([N+](=O)[O-])c2)ccn1,CNCTC MY330/88,,,7.94 µM
S=c1[nH]c2ccccc2c(=S)n1-c1ccccc1,330/88,,,>64 µM
C[C@H](NC(=O)OCc1ccccc1)c1cnc(-c2ccc([N+](=O)[O-])cc2)[nH]1,MY330/88,,21 d,>125 µM
S=c1[nH]c2ccccc2c(=S)n1-c1ccc(Cl)c(Cl)c1,330/88,,,32 µM
NC(=S)CSc1ccnc(C(N)=S)c1,330/88,,,62 µM
CC[C@H]1OC(=O)[C@H](C)C(=O)[C@H](C)[C@@H](O[C@@H]2O[C@H](C)C[C@H](N(C)C)[C@H]2O)[C@](C)(OC)C[C@@H](C)C(=O)[C@H](C)[C@H]2N(CCCCn3cnc(-c4cccnc4)c3)C(=O)O[C@]12C,Isolate 1257,,,≥40 µg/mL
CCCCc1ccc(NC(=S)c2cccc(Br)c2)cc1,MY330/88,,,32 µM
CCCCCCCCOc1ccccc1NC(=O)OCCN1CCCCC1,MY330/88,,,32 µM
Cc1ccc2nc(SCc3cccc([N+](=O)[O-])c3)[nH]c2c1,MY330/88,,,>62 µM
O=C1NC(Nc2cccc(Cl)c2)=N/C1=C\c1ccccc1Cl,,,,>12.5 µg/mL
CCOC(=O)c1ccc(NC(=O)c2cc(C)ccc2O)cc1,CNCTC MY330/88,,,>1000 µM
CC1(C)Nc2ccccc2C(=S)N1c1ccc(Cl)c(Cl)c1,MY330/88,,,62.5 µg/mL
Cc1cccc(CSc2ccnc(C#N)c2)c1,CNCTC MY330/88,,,30.9 µM
CC(C)N1C(NNC(=O)c2cnccn2)=NS(=O)(=O)c2ccccc21,ATCC49601,,,>16 µg/mL
CCCCCCCCOc1ccc(NC(=O)OCC[NH+]2CCCC2)cc1,MY330/88,,,16 µM
O=C(Nc1ccc(Cl)c(Cl)c1)c1cc(F)ccc1O,CNCTC MY330/88,,,8 µM
NNC(=O)c1ccncc1,168-4,,,2.5 µg/mL
CCCCCCCCCCOc1ccc(NC(=O)OCCN(C)C)cc1,MY330/88,,,4 µM
CN1C(NC(=O)c2ccc(Cl)nc2)=NS(=O)(=O)c2cc(Cl)ccc21,ATCC49601,,,>16 µg/mL
CC(C)[C@H](NC(=O)OCc1ccccc1)c1cnc(-c2ccccc2)[nH]1,MY330/88,,14 d,>250 µM
S=c1[nH]c2ccccc2c(=S)n1-c1ccc(Cl)cc1,330/88,,,>64 µM
CCCCCCCCCOc1ccccc1NC(=O)OCC[NH+]1CCCC1,MY330/88,,,16 µM
Cc1ccc(O)c(C(=O)Nc2ccc(C#N)cc2)c1,CNCTC MY330/88,,,1000 µM
N#CCCSc1ccnc(C(N)=S)c1,330/88,,,250 µM
Cc1ccc2nc(SCc3ccc([N+](=O)[O-])cc3[N+](=O)[O-])[nH]c2c1,MY330/88,,,>125 µM
CN1C(NNC(=O)c2cccnc2)=NS(=O)(=O)c2ccc(Cl)cc21,ATCC49601,,,>16 µg/mL
O=C(Oc1cc(Cl)ccc1C(=O)Nc1ccc(C(F)(F)F)cc1)c1ccccc1,330/88,broth dilution,14 d,2 µM
Cc1cccc(Nc2nc(C#N)cnc2C(N)=O)c1,80/72,,,>100 µg/mL
CCCCCCCOc1ccccc1NC(=O)OCC[NH+]1CCCC1,MY330/88,,,32 µM
CC(C)(C)c1cc(C(C)(C)C)c2nc(C(=O)NC(Cc3ccc(O)cc3)C(=O)O)oc2c1,MY330/88,,,1000 µM
S=C(Nc1ccc(C2CCCCC2)cc1)c1ccccc1,MY330/88,,,32 µM
N#Cc1cc(SCC(=O)NN)ccn1,330/88,,,500 µM
O=C(Oc1ccc(Cl)cc1C(=O)Nc1cccc(Cl)c1)c1cnccn1,330/88,,21 d,8 µM
S=c1oc2c(Cl)cc(Cl)cc2c(=S)n1-c1ccc(Br)cc1,330/88,,,62 µM
CC(C)(C)c1cc(C(C)(C)C)c2oc(C(N)=O)nc2c1,MY330/88,,,125 µM
CCCOc1ccccc1NC(=O)OCC[NH+]1CCCC1,MY330/88,,,1000 µM
Cc1nc2scc(-c3ccco3)c2c(=O)n1NC(=O)c1cccs1,CNCTC MY330/88,,,121 µM
CN(C)c1ccc(NC(=O)c2cc([N+](=O)[O-])ccc2O)cc1,CNCTC MY330/88,,,1000 µM
NC(=S)c1cc(SCc2ccc(F)cc2)ccn1,CNCTC MY330/88,,,15.85 µM
O=C(NC1=NS(=O)(=O)c2ccccc2N1c1ccccc1)c1ccc(Cl)nc1,ATCC49601,,,>16 µg/mL
Cc1ccc2nc(SCc3ccc(F)cc3)[nH]c2c1,MY330/88,,,32 µM
CC(C)c1c(O)cc([C@@H](N=C(N)N)C(=O)NCC(=O)O)cc1O,S-141,,,25 µg/mL
CC(C)C[C@H](NC(=O)OCc1ccccc1)c1cnc(-c2ccccc2)[nH]1,MY330/88,,21 d,>500 µM
N#CCCSc1ccnc(C#N)c1,330/88,,,250 µM

Neighbouring rows are from separate reports.